Consider 1 compound from ChEMBL document CHEMBL4118110, “The identification of inhibitory compounds of Rickettsia prowazekii methionine aminopeptidase for antibacterial applications” (Bioorg Med Chem Lett, 2018).

The experiment is described as follows: Inhibition of Rickettsia prowazekii N-terminal His6-tagged methionine aminopeptidase 1 expressed in Escherichia coli DLB3 Rosetta cells at 10 uM using Met-AMC as substrate preincubated for 1 hr followed by 30 mins incubation after substrate addition measured after 90 mins in presence of MnCl2 by fluorescence assay relative to control. An outline of the steps: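 Recombinant R. prowazekii MetAP with Mn(II) as the metal cofactor. Met-AMC substrate; release of free AMC is followed by fluorescence (excitation 360 nm, emission 460 nm). Activity is the slope of fluorescence versus time, compared with an uninhibited control.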

The inhibition is the drop in the measured response relative to a control, in per cent. Regarding `Nc1nnc(SCc2c(F)cccc2Cl)[nH]1`, the inhibition fell in the range of 49 to 64%.
